The values that follow come from patent US5387717A, “Method for the detoxification of mustard gas, sulfur-containing quaternary ammonium ionene polymers and their use as microbicides” (dated 1995).

In the assay the test system is mixed bacterial population comprised of Staphylococcus aureus, Enterobacter aerogenes and Pseudomonas aeruginosa. Put plainly: Short contact suspension screen (contact disinfectant). The following applies: 10 min exposure.

As for Benzalkonium Chloride, the “% REDUCTION” value is 83.44% (50 ppm), 86.29% (100 ppm), 99.68% (250 ppm) and 99.99% (500 ppm).
